PubChem BioAssay AID1259414, Drosophila RNAi Screening Center – 2018
The deposit covers about 24,000 reagents; shown is a random part of those with a known target gene and a result. Over the whole deposit, about 1,210 (5%) are marked active. 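Inactive calls also include excluded dsRNAs with several or no targets, genes unexpressed in JW18, and well A1, regardless of score.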 Names joined by + are all predicted targets of the reagent.

- Test: 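Fly genes that alter Wolbachia amount inside host cells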 (primary screen)
- Cells: Drosophila JW18 cells infected with Wolbachia
- Reagents: long dsRNA against Drosophila genes, 0.25 µg dsRNA per well of a 384-well plate
- Timing: 5 days
- Challenge: cells persistently infected with Wolbachia before knock-down; no added drug
- Measurement: 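Imaged fluorescence in situ signal for Wolbachia 23S rRNA per DAPI-counted host cell, given as a robust z-score within each plate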
- Reading the numbers: Wolbachia per cell robust z: higher = more Wolbachia per host cell than the plate typical
- Call rule: 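Active if absolute robust z reaches 1.5 in two or more of three replicates, leaving out multi- or no-target dsRNAs, genes unexpressed in JW18 and A1 wells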

no.	predicted target	dsRNA	Wolbachia per cell robust z, rep 1	Wolbachia per cell robust z, rep 2	Wolbachia per cell robust z, rep 3	activity call
1	Etfb	DRSC16324	0.941	-0.452	-6.22	inactive
2	CG31141	DRSC13646	0.011	-0.858	-3.22	inactive
3	CG31141	DRSC29508	-0.372	0.769	0.949	inactive
4	CCKLR-17D3	DRSC20015	1.09	0.791	0.388	inactive
5	CCKLR-17D3	DRSC20017	0.0104	-0.53	-0.296	inactive
6	CCKLR-17D3	DRSC23715	-0.342	0.378	0.461	inactive
7	CG7483	DRSC16249	-0.372	-0.695	-0.93	inactive
8	CG7483	DRSC22432	1.79	2.31	0.7	active
9	CG7483	DRSC26402	-1.99	0.487	0.425	inactive
10	Reepl1	DRSC19418	-2.65	0.25	0.125	inactive
11	Reepl1	DRSC26698	0.589	0.686	0.619	inactive
12	CG32551	DRSC19259	-0.398	0.192	0.767	inactive
13	TrpA1	DRSC10544	-3.26	0.786	0.722	inactive
14	Peritrophin-15a	DRSC02636	0.477	-2.89	-1.18	inactive
15	Peritrophin-15a	DRSC29171	0.213	-0.903	-0.366	inactive
16	CG10433	DRSC04068	-0.0289	-1.22	-1.19	inactive
17	CG10433	DRSC26255	-0.969	-0.762	0.459	inactive
18	Tace	DRSC16340	0.689	-0.251	0.788	inactive
19	Cont	DRSC12149	-0.178	1.08	-0.361	inactive
20	RhoGEF3	DRSC08266	-1.1	-0.817	-0.512	inactive
21	RhoGEF3	DRSC08351	-0.319	0.259	-0.411	inactive
22	RhoGEF3	DRSC08352	0.282	0.254	-0.132	inactive
23	RhoGEF3	DRSC08353	-4.55	-0.221	-0.325	inactive
24	Pif1A	DRSC14383	0.121	-3.4	1.44	inactive
25	sotv + CG10731	DRSC05997	0.0358	0.54	0.283	inactive
26	CG7730	DRSC10909	0.585	0.676	-0.309	inactive
27	CG33120	DRSC02073	-0.0173	-0.534	-3.9	inactive
28	UGP	DRSC10411	0.505	-0.192	0.212	inactive
